Test results: patent US20050171216A1, “Germicidal compositions containing phthalaldehyde mixtures and methods of using such compositions for disinfection or sterilization” (priority 2004, published 2005)

Experiment: staining test on pigskin
Set-up: species or system pig; key to Staining: +: tends to stain certain surfaces; −: do not stain
Conditions: for Staining Results: about 10 μL on pigskin, about 24 hours at room temperature; for Staining: summary Table 14

## O=Cc1ccccc1C=O [OPA, phthalaldehyde]
0.14% solution
  Staining Results: Dark Staining
  Staining: +

## O=Cc1cccc(C=O)c1 [IPA, isophthalaldehyde]
0.20% solution
  Staining Results: Non-Staining
  Staining: −

## O=Cc1ccc(C=O)cc1 [TPA, terephthalaldehyde]
  Staining: −
